Experiments:
[1] = biological target: HA70 of BoNT/A (full-length, residues M1–N626) (Clostridium botulinum strain 62A (BoNT/A1-producing))
[2] = biological target: HA70^D3 (D3 domain of HA70, residues P378–N626) (Clostridium botulinum strain 62A (BoNT/A1-producing))
[3] = biological target: HA17 of BoNT/A (full-length, residues M1–I146) (Clostridium botulinum strain 62A (BoNT/A1-producing))

HA17 of BoNT/A (full-length, residues M1–I146)
stoichiometry N (HA17 per HA70) [1]: 1 | stoichiometry N (HA17 per HA70^D3) [2]: 1

HA33 of BoNT/A (full-length, residues M1–P293) (from UniProt Q45871 1-293)
stoichiometry N (HA33 per HA17) [3]: 2

Source: publication PMC3795040, “Structure of a Bimodular Botulinum Neurotoxin Complex Provides Insights into Its Oral Toxicity” (2013)
